From PubChem BioAssay (NCATS)
Only a part is listed here, and it is no random draw. Inconclusive results are not listed. The source made the active and inactive calls. Calls follow the shape of the full dose curve.

Chains of the proteins cited; added tags and fusions are not shown.
UniProt P09958, whole entry: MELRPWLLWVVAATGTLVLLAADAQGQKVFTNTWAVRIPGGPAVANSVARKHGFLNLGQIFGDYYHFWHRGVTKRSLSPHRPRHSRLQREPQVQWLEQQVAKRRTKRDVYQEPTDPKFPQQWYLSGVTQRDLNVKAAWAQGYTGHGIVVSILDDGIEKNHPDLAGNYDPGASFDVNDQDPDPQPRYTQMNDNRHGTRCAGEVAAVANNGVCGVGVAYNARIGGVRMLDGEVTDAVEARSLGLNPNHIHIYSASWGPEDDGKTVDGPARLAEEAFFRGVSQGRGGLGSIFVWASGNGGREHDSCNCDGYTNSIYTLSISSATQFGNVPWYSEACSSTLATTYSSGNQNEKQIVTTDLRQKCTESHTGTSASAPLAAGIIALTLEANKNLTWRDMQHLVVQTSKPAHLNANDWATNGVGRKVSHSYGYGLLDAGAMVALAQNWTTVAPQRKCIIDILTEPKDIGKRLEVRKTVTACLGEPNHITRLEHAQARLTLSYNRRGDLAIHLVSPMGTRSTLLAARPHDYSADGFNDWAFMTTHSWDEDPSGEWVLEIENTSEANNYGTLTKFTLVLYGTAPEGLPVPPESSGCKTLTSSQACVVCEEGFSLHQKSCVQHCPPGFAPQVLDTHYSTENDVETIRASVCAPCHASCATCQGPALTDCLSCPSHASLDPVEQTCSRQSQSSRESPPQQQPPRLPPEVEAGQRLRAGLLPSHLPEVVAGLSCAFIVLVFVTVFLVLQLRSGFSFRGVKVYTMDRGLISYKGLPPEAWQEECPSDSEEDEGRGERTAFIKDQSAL
UniProt P00784, whole entry: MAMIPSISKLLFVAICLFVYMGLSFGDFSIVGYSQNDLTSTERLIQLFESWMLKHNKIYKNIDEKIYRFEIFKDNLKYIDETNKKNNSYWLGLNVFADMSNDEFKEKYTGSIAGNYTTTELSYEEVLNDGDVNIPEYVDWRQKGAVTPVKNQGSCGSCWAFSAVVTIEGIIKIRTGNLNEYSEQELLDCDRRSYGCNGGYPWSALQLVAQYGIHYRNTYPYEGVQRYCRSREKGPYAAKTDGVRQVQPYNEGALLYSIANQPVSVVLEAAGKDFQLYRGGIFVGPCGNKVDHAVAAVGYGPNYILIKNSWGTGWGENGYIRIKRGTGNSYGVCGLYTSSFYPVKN

Experiments:
[1] = target: Polyprotein P1234 (Chikungunya virus (strain S27-African prototype)) (UniProt Q8JUX6); test: Secondary cell base assay for inhibitors of NSP2Pro Chikungunya virus (CHIKV) (AID 1964100); settings: cell-based CHIKV nsP2 protease reporter assay; at 51.1 µM (top of the series); also: nearly all actives have a fitted effect of over 70% in size
[2] = target: Polyprotein P1234 (Chikungunya virus (strain S27-African prototype)) (UniProt Q8JUX6); test: Selectivity profile for inhibitors of NSP2Pro chikungunya virus (CHIKV): Full length NSP2 enzyme counterscreen (CHIKV-NSP2) (AID 1964101); settings: Full-length CHIKV NSP2 protease enzymatic counterscreen; at 50.7 µM (top of the series); also: nearly all actives have a fitted effect of over 65% in size
Furin (Homo sapiens) = Furin (Homo sapiens) (UniProt P09958); test: Selectivity profile for inhibitors of NSP2Pro chikungunya virus (CHIKV): Human furin counterscreen (AID 1964102); settings: Recombinant human furin enzymatic counterscreen, fluorogenic substrate; at 50.6 µM (top of the series)
[3] = target: Polyprotein P1234 (Chikungunya virus (strain S27-African prototype)) (UniProt Q8JUX6); test: Selectivity profile for inhibitors of NSP2Pro chikungunya virus (CHIKV): Endogenous NS2/3 peptide Counterscreen (AID 1964103); settings: Purified CHIKV nsP2 protease, endogenous NS2/3 peptide cleavage; at 51 µM (top of the series); also: nearly all actives have a fitted effect of over 55% in size
Papain (Carica papaya) = Papain (Carica papaya) (UniProt P00784); test: Selectivity profile for inhibitors of NSP2Pro chikungunya virus (CHIKV): Papain Counterscreen (AID 1964104); settings: purified papain protease activity, enzymatic inhibition; at 51 µM (top of the series)
[4] = tested on: Chikungunya virus nsP2 protease; test: Confirmatory qHTS for inhibitors of NSP2Pro chikungunya virus (CHIKV) (AID 1964105); settings: CHIKV nsP2 protease enzymatic activity; at 25.5 µM (top of the series); also: nearly all actives have a fitted effect of over 75% in size

Measured: activity change, negative = inhibition
% is scaled to controls: 0 for no effect and ±100 for the full control effect.

CN(C)C1(CNC(=O)c2ccc(C(C)(C)C)cc2)CCCCC1
inactive: [1] 108% | [2] -25.7% | Furin (Homo sapiens) -2.56% | [3] -13.6% | Papain (Carica papaya) -2.09% | [4] -2.85%
